Laboratory results as given in US5929070A (Eli Lilly and Company, priority 1997, dated 1999).

System: 5-HT-2 receptor
Assay: pharmacological studies, 5-HT-2 receptor activity

SMILES: Cc1cc2c(s1)Nc1ccccc1N=C2N1CCN(C)CC1 [olanzapine, 2-methyl-4-(4-methyl-1-piperazinyl)-10H-thieno[2,3-b][1,5]benzodiazepine]
- activity at the 5-HT-2 receptor: active
